{"source": "paper PMC4311985", "about": "“Molecular Surveillance of Antiviral Drug Resistance of Influenza A/H3N2 Virus in Singapore, 2009-2013” (PLoS ONE, 2015)", "origin": "cited, not measured here", "tested_on": "NA D251G", "conditions": "cited from earlier work"}
{"compound": "CC(=O)N[C@H]1[C@H]([C@H](O)[C@H](O)CO)OC(C(=O)O)=C[C@@H]1N=C(N)N", "note": "[Zanamivir, zanamivir]", "values": [{"measurement": "level of drug resistance", "value": "low levels"}]}
